Results: patent publication US20090060984A1, “ANIONIC SURFACTANTS LETHAL TO GRAM-POSITIVE BACTERIA” (priority 2007, published 2009)

Tested on: Gram-negative bacteria
Experiment: Growth on surfactant/TSA agar plates
Format: cell-based
Settings: agar plates containing sodium bis[2-ethylhexyl]sulfosuccinate
Protocol: This solution was then aliquoted into sterile petri dishes, approximately 25 mL per plate, and allowed to solidify. The organisms were grown in 5 mL of Trypticase Soy Broth. The sterile broth was inoculated with a single isolated colony from a stock culture and allowed to incubate in a shaking water bath at 37° C. for 8-10 hours. The estimated concentration was about 10^9 CFU/mL. Some plates were tested with a 1:100 dilution of these cultures to arrive at an approximate concentration of 10^7 CFU/mL. Then, 10 μL of each overnight culture was pipetted directly onto the surface of the surfactant/TSA plates, which were then allowed to incubate at 37° C. for 24 hours. Results were based on the presence or absence of bacterial growth on the surface of the agar.

CCCCC(CC)COC(=O)CC(C(=O)OCC(CC)CCCC)S(=O)(=O)[O-].[Na+] (stereo not shown) [NaAOT, Sodium bis(2-ethylhexyl)sulfosuccinate]
Effect on Gram-negative bacteria tested: resistant
